Compound potency records, mixed from different reports. Data source: NIAID ChemDB in PubChem.

Common to all: growth or infection tests; organism: Aspergillus fumigatus

MIC50, MIC90 and the like: level of inhibition, or share of isolates inhibited.

| compound | conditions | read-out | method | strain | value |
|---|---|---|---|---|---|
| N[C@@H](Cc1ccc(N(CCCl)CCCl)cc1)C(=O)O |  | MIC |  | 3 clinical isolates | >32 µg/mL |
| COc1ccc(C(=O)CC(c2ccc3ccccc3c2)C(C#N)C#N)c(OC)c1 |  | MIC |  | ATCC 26934 | >50 µg/mL |
| O=C1/C(=C/c2ccccc2)CN(C(=O)/C=C/c2ccc([N+](=O)[O-])cc2)C/C1=C\c1ccccc1 |  | MIC |  | 3 clinical isolates | >32 µg/mL |
| COc1ccc(/C=C/C(=O)c2ccccc2)cc1OC |  | MIC |  | ATCC 26934 | >50 µg/mL |
| Cc1ccc(Sc2nc3ccc(C)cc3cc2C2C(C#N)=C(N)Oc3c2c(=O)oc2ccccc32)cc1 |  | MIC | broth dilution | MTCC 3008 | 500 µg/mL |
| COc1ccc(/C=C/C(=O)c2ccccc2)cc1 |  | MIC |  | ATCC 26934 | >50 µg/mL |
| C[C@H]1[C@H](O)[C@@H](C)/C=C/C=C/C=C/C=C/C=C/C=C/C=C/[C@H](O[C@@H]2O[C@H](C)[C@@H](O)[C@H](N)[C@@H]2O)C[C@@H]2O[C@](O)(C[C@@H](O)C[C@@H](O)CC[C@H](O)[C@@H](O)C[C@@H](O)CC(=O)O[C@H]1C)C[C@H](O)[C@H]2C(=O)O |  | Geometric mean MIC |  | 60 isolates | 0.4 µg/mL |
| C[C@@H](c1ncncc1F)[C@](O)(Cn1cncn1)c1ccc(F)cc1F |  | MFC |  | NFI 0159 | 0.25 µg/mL |
| COc1ccc2nc(Sc3ccc(Cl)cc3)c(C3C(C#N)=C(N)Oc4cc(C)oc(=O)c43)cc2c1 |  | MIC | broth dilution | MTCC 3008 | >1000 µg/mL |
| O=C1/C(=C/c2ccccc2)CN(C(=O)/C=C/c2ccc(Cl)cc2)C/C1=C\c1ccccc1 |  | MIC |  | 3 clinical isolates | >32 µg/mL |
| O=[N+]([O-])c1ccc(C[Se]c2nnnn2C2CCCCC2)c([N+](=O)[O-])c1 | 24 h | EC50 | broth dilution | 231 | >500 µM |
| O=C(/C=C/c1ccc(Cl)cc1)c1ccc(Cl)cc1 |  | MIC |  | ATCC 26934 | >50 µg/mL |
| Cc1ccc(/C=C/C(=O)N2C/C(=C\c3ccccc3)C(=O)/C(=C/c3ccccc3)C2)cc1 |  | MIC |  | 3 clinical isolates | >32 µg/mL |
| COc1cccc(OC)c1O |  | MIC50 | agar |  | >1000 µg/mL |
| CCCCCCCCOc1ccc(-c2ccc(C(=O)NC3CC(NCCN)CNC(=O)[C@@H]4[C@@H](O)[C@@H](C)CN4C(=O)[C@@H](CO)NC(=O)[C@H]([C@H](O)Cc4ccccc4)NC(=O)[C@@H]4C[C@@H](O)CN4C(=O)[C@H]([C@@H](C)O)NC3=O)cc2)cc1 |  | MIC |  | 50 isolates | 0.179 µg/mL |
| C=CCc1ccc(O)c(OC)c1 |  | MIC | broth dilution | MTCC 2550 | 320 µg/mL |
| O=C(/C=C/c1ccc2ccccc2c1)c1ccccc1 |  | MIC |  | ATCC 26934 | >50 µg/mL |
| C[C@H](c1ncncc1F)[C@](O)(Cn1cncn1)c1ccc(F)cc1F | clinical isolate | MIC80 | broth dilution |  | 5.73 µM |
| COC(=O)C(C(=O)OC)C(CC(=O)c1ccccc1)c1ccc2ccccc2c1 |  | MIC |  | ATCC 26934 | >50 µg/mL |
| Cc1ccc2nc(Sc3ccc(Cl)cc3)c(C3C(C#N)=C(N)Oc4cc(C)oc(=O)c43)cc2c1 |  | MIC | broth dilution | MTCC 3008 | 1000 µg/mL |
| O=[N+]([O-])c1cc(C[Se]c2nnnn2C2CCCCC2)cc([N+](=O)[O-])c1 | 24 h | EC50 | broth dilution | 231 | >500 µM |
| O=C(O)c1cc(O)c(O)c(O)c1 |  | MIC50 | agar |  | >1000 µg/mL |
| O=[N+]([O-])c1cc(CSc2nnnn2-c2ccc(Cl)c(Cl)c2)cc([N+](=O)[O-])c1 | 24 h | EC50 | broth dilution | 231 | >125 µM |
| O=C(/C=C/c1ccco1)c1ccc(Cl)cc1Cl |  | MIC |  | ATCC 26934 | >50 µg/mL |
| CN(C)CCCC1(c2ccc(F)cc2)OCc2cc(C#N)ccc21 |  | MFC |  | 10 clinical isolates | 312–2500 µg/mL |
| O=C(O)/C=C/c1ccc(O)cc1 |  | MIC100 | agar |  | >1000 µg/mL |
| Cc1ccc2nc(Sc3ccccc3)c(C3C(C#N)=C(N)Oc4c3c(=O)oc3ccc(C)cc43)cc2c1 |  | MIC | broth dilution | MTCC 3008 | 500 µg/mL |
| O=C1/C(=C\c2ccccc2)CN(C(=O)c2ccc(/C=C/C(=O)c3ccccc3)cc2)C/C1=C/c1ccccc1 |  | MIC |  | 3 clinical isolates | >32 µg/mL |
| COc1cc(C)ccc1O |  | MIC100 | agar |  | 928 µg/mL |
| O=C1/C(=C/c2ccccc2)CNC/C1=C\c1ccccc1 |  | MIC |  | 3 clinical isolates | >32 µg/mL |
| CCC(C)n1ncn(-c2ccc(N3CCN(c4ccc(OC[C@H]5CO[C@](Cn6cncn6)(c6ccc(Cl)cc6Cl)O5)cc4)CC3)cc2)c1=O |  | MIC |  | NFI 0159 | 0.25 µg/mL |
| O=[N+]([O-])c1cc(CSc2nnnn2Cc2ccccc2)cc([N+](=O)[O-])c1 | 24 h | EC50 | broth dilution | 231 | >500 µM |

Rows are shuffled and stem from different studies. Blank or dashed fields: not listed here. Two numbers with a dash give a range or band. ECn is the concentration giving n% inhibition of infection, replication or growth.